Measured values from several laboratories, pooled; numbers as filed in NIAID ChemDB.

All rows: growth or infection tests; agent: HIV-1; read by: p24; measure: EC50

Blank or dashed fields: not listed here.

SMILES,cells,mutations,strain or isolate,result
COc1ccc(S(=O)(=O)N(CC(C)C)C[C@@H](O)CCNc2cc(C(C)(C)C)sc2C(N)=O)cc1,CEM,-,IIIB,<1 µM
CN(C)S(=O)(=O)N1CCn2c(nc(C(=O)NCc3ccc(F)cc3)c(O)c2=O)C1(C)C,MT-4,-,-,<1 µM
CC(C)[C@H](NC(=O)OCc1ccccn1)C(=O)N[C@@H](Cc1ccccc1)[C@@H](O)C[C@H](Cc1ccccc1)NC(=O)OCc1cccnc1,MT-4,PR-L10R M46I L63P 184V,NL4-3,<1.5 µM
CCN1c2ncc(CCOc3ccc(S(=O)(=O)c4ccc(C(=O)O)cc4)cc3C)cc2C(=O)N(C)c2cccnc21,C8166,RT-K103N Y181C,-,>0.05 µM
CC(C)C1=C2[C@H]3CC[C@@H]4[C@@]5(C)CC[C@H](OC(=O)C6C[C@@H](C(=O)O)C6(C)C)C(C)(C)[C@@H]5CC[C@@]4(C)[C@]3(C)CC[C@@]2(NC(=O)C2(NC(=O)c3ncccn3)CCC2)CC1=O,MT-4,V7A,NL4-3,>0.05 µM
CC(C)CN(C[C@@H](O)[C@H](Cc1ccccc1)NC(=O)O[C@H]1CO[C@H]2OCC[C@H]21)S(=O)(=O)c1ccc2c(c1)OCO2,PHA-PBM,-,MDR/B,0.0039 µM
Clc1cc(CN2CCCNCCNCCCNCC2)cc(Cl)n1,PBMC,-,R5 clinical isolate #19,4.7 µM
CCN1c2ncc(CCOc3ccc(-c4ccccc4)cc3)cc2C(=O)N(C)c2cccnc21,C8166,-,IIIB,<0.01 µM
CC(C)(C)CS(=O)(=O)N(CC1CCCC1)C[C@@H](O)CN(CCc1ccccc1)C(=O)c1ccccc1,CEM,-,IIIB,<1 µM
O=C(O)c1cc(-n2cccc2)ccc1Cl,PBMC + MT-2,-,RU570 R5 CLADE G,39.68 µM
CC(C)=CCOc1cc(NC(=S)c2ccsc2C)ccc1Cl,CEM + CEM-SS,RT-L100I,4XAZT+L100I (RT D67N K70R L100I T215Y K219Q),0.1 µM
CC(C)CN(CC(O)Cn1ccnc1S(=O)(=O)c1ccccc1)S(=O)(=O)c1ccccc1,CEM,-,IIIB,<1 µM
CCN1c2ncc(CCOc3ccc(C(=O)Nc4ccc(CC(=O)O)cc4)cc3C)cc2C(=O)Nc2c(C)ccnc21,C8166,-,IIIB,0.01–0.05 µM
CC(=O)N1CCn2c(nc(C(=O)NCc3ccc(F)cc3)c(O)c2=O)C(N(C)C(=O)C(=O)N(C)C)C1,MT-4,-,-,<1 µM
CCN1c2ncc(CCOc3ccc(-c4ccc(C(=O)O)cc4)c(C)c3)cc2C(=O)N(C)c2cccnc21,C8166,RT-K103N Y181C,-,>0.05 µM
CC(C)C1=C2[C@H]3CC[C@@H]4[C@@]5(C)CC[C@H](OC(=O)C6C[C@@H](C(=O)O)C6(C)C)C(C)(C)[C@@H]5CC[C@@]4(C)[C@]3(C)CC[C@@]2(NC(=O)C(C)(C)NC(=O)c2ccc3nc(-c4cnccn4)[nH]c3c2)CC1=O,MT-4,-,NL4-3,<0.005 µM
CCN1c2ncc(CCOc3ccc(-c4ccc(C(=O)O)cc4)cc3)cc2C(=O)N(C)c2cccnc21,C8166,-,IIIB,<0.01 µM
COc1ccc(S(=O)(=O)N(CC(C)C)CC(O)CN(CC(C)C)S(=O)(=O)c2ccccc2)cc1,CEM,-,IIIB,<1 µM
Cc1cccnc1C(=O)NC(C)(C)C(=O)N[C@@]12CC[C@]3(C)[C@H](CC[C@@H]4[C@@]5(C)CC[C@H](OC(=O)C6C[C@@H](C(=O)O)C6(C)C)C(C)(C)[C@@H]5CC[C@]43C)C1=C(C(C)C)C(=O)C2,MT-4,V7A,NL4-3,0.01001–0.05 µM
COc1ccc(S(=O)(=O)N(CC(C)C)C[C@@H](O)CCN(CC2CCCC2)S(=O)(=O)c2ccncc2)cc1,CEM,-,IIIB,<1 µM
CN(C)C1COCCn2c1nc(C(=O)NCc1ccc(F)cc1)c(O)c2=O,MT-4,-,-,<50 µM
O=C(c1ccccc1)N(CCc1ccccc1)C[C@H](O)CN(CC1CCCC1)S(=O)(=O)c1ccncc1,CEM,-,IIIB,<1 µM
CC(=O)N(C)C1COCCn2c1nc(C(=O)NCc1ccc(F)cc1)c(O)c2=O,MT-4,-,-,<1 µM
Cc1ccc(C(=O)NC(C)(C)C(=O)N[C@@]23CC[C@]4(C)[C@H](CC[C@@H]5[C@@]6(C)CC[C@H](OC(=O)C7C[C@@H](C(=O)O)C7(C)C)C(C)(C)[C@@H]6CC[C@]54C)C2=C(C(C)C)C(=O)C3)cn1,MT-4,V7A,NL4-3,0.01001–0.05 µM
CN(C)C(=O)C(=O)N(C)C1COCCn2c1nc(C(=O)NCc1ccc(F)cc1)c(O)c2=O,MT-4,-,-,<1 µM
CCN1c2ncc(CCOc3ccc(-c4csc(C(=O)O)c4)cc3C)cc2C(=O)N(C)c2cccnc21,C8166,RT-K103N Y181C,-,0.01–0.05 µM
Cc1ccc(-c2ccc3c(c2)C=C(C(=O)Nc2ccc(C[N+](C)(C)C4CCOCC4)cc2)CCC3)cc1,PBMC,-,TB9 CLADE C,<1 µM
Cc1nc(CN2CCn3c(nc(C(=O)NCc4ccc(F)cc4)c(O)c3=O)C2(C)C)cs1,MT-4,-,-,<1 µM

Repeating the first 4 entries:

COc1ccc(S(=O)(=O)N(CC(C)C)C[C@@H](O)CCNc2cc(C(C)(C)C)sc2C(N)=O)cc1 ; cells: CEM ; strain or isolate: IIIB ; result: <1 µM
CN(C)S(=O)(=O)N1CCn2c(nc(C(=O)NCc3ccc(F)cc3)c(O)c2=O)C1(C)C ; cells: MT-4 ; result: <1 µM
CC(C)[C@H](NC(=O)OCc1ccccn1)C(=O)N[C@@H](Cc1ccccc1)[C@@H](O)C[C@H](Cc1ccccc1)NC(=O)OCc1cccnc1 ; cells: MT-4 ; mutations: PR-L10R M46I L63P 184V ; strain or isolate: NL4-3 ; result: <1.5 µM
CCN1c2ncc(CCOc3ccc(S(=O)(=O)c4ccc(C(=O)O)cc4)cc3C)cc2C(=O)N(C)c2cccnc21 ; cells: C8166 ; mutations: RT-K103N Y181C ; result: >0.05 µM

Neighbouring rows are from separate reports. ECn: concentration that inhibits the pathogen or its effect by n%. Two numbers with a dash give a range or band.